Results as given in publication PMC12363175.

Experiments:
fulvous fruit bat ACE2 = assay: SPR; conditions: domain or fragment
[1] = molecular target: minke whale ACE2 ectodomain fused with mFc (minke whale (Balaenoptera acutorostrata scammoni)); assay: SPR; conditions: domain or fragment

Substance: SARS-CoV-2 PT-RBD (from UniProt P0DTC2)
- Kd (fulvous fruit bat ACE2): 5.28 µM
- Kd [1]: 0.401 µM
